The source of these data is PMC11748363, “Antimicrobial and Antiproliferative Properties of 2‐Phenyl‐N‐(Pyridin‐2‐yl)acetamides” (Chemical Biology & Drug Design, 2025).

Bounds are passed on as bounds.

The subject of the series is Mycobacterium tuberculosis H37Ra. Kind of series: Antimycobacterial microdilution broth MIC (resazurin), Mtb H37Ra. It is filed as cell-based. To be noted: Related to 1/MIC.
Turning to `O=C(Cc1cccc(Cl)c1)Nc1ccc(Cl)cn1` [Compound 17, 2-(3-chlorophenyl)-N-(5-chloropyridin-2-yl)acetamide], the “Relative activity (title series vs previously published compound)” value (from here on “Relative activity”) was “<”.
Take `O=C(Cc1ccccc1)Nc1ccccn1` [Compound 1]: the “Relative activity” value is “>”.
Consider `COc1cccc(CC(=O)Nc2cccc(Cl)n2)c1` [Compound 9, 2-(3-methoxyphenyl)-N-(6-chloropyridin-2-yl)acetamide], for which the “Relative activity” value was “<”.
Consider `O=C(Cc1cccc(Cl)c1)Nc1ccccn1` [Compound 16, 2-(3-chlorophenyl)-N-(pyridin-2-yl)acetamide], for which the “Relative activity” value was “=”.
As to `O=C(Cc1ccccc1Cl)Nc1ccccn1` [Compound 13, 2-(2-chlorophenyl)-N-(pyridin-2-yl)acetamide], the “Relative activity” value is recorded as “>”.
In the case of `COc1ccc(CC(=O)Nc2ccc(Cl)cn2)cc1` [Compound 11, 2-(4-methoxyphenyl)-N-(5-chloropyridin-2-yl)acetamide], the “Relative activity” value is recorded as “<”.
Consider `O=C(Cc1cccc(Cl)c1)Nc1cccc(Cl)n1` [Compound 18], for which the “Relative activity” value is “=”.
Regarding `COc1ccccc1CC(=O)Nc1cccc(Cl)n1` [Compound 6], the “Relative activity” value is “=”.
Under `O=C(Cc1ccc(Cl)cc1)Nc1ccccn1` [Compound 19] stands “>”; under `O=C(Cc1ccccc1)Nc1ccc(Cl)cn1` [Compound 2], “>”.
As for `COc1cccc(CC(=O)Nc2ccccn2)c1` [Compound 7, 2-(3-methoxyphenyl)-N-(pyridin-2-yl)acetamide], the “Relative activity” value was “<”.
With `O=C(Cc1ccccc1Cl)Nc1cccc(Cl)n1` [Compound 15, 2-(2-chlorophenyl)-N-(6-chloropyridin-2-yl)acetamide], the “Relative activity” value is recorded as “>”.
As to `O=C(Cc1cccc(C(F)(F)F)c1)Nc1ccccn1` [Compound 25], the “Relative activity” value is “<”.
Consider `COc1ccc(CC(=O)Nc2cccc(Cl)n2)cc1` [Compound 12, 2-(4-methoxyphenyl)-N-(6-chloropyridin-2-yl)acetamide], for which the “Relative activity” value was “=”.
In the case of `COc1ccccc1CC(=O)Nc1ccc(Cl)cn1` [Compound 5], the “Relative activity” value is listed as “<”.
Regarding `O=C(Cc1cccc(C(F)(F)F)c1)Nc1ccc(Cl)cn1` [Compound 26], the “Relative activity” value is given as “<”.
In the case of `O=C(Cc1ccccc1)Nc1cccc(Cl)n1` [Compound 3], the “Relative activity” value is “>”.
As for `COc1ccc(CC(=O)Nc2ccccn2)cc1` [Compound 10, 2-(4-methoxyphenyl)-N-(pyridin-2-yl)acetamide], the “Relative activity” value is reported as “<”.
Regarding `O=C(Cc1ccccc1Cl)Nc1ccc(Cl)cn1` [Compound 14, 2-(2-chlorophenyl)-N-(5-chloropyridin-2-yl)acetamide], the “Relative activity” value is recorded as “=”.
Turning to `COc1cccc(CC(=O)Nc2ccc(Cl)cn2)c1` [Compound 8, 2-(3-methoxyphenyl)-N-(5-chloropyridin-2-yl)acetamide], the “Relative activity” value is reported as “>”.
In the case of `O=C(Cc1cccc(C(F)(F)F)c1)Nc1cccc(Cl)n1` [Compound 27], the “Relative activity” value was “<”.
The entry for `O=C(Cc1ccc(Cl)cc1)Nc1ccc(Cl)cn1` [Compound 20] is “>”; for `COc1ccccc1CC(=O)Nc1ccccn1` [Compound 4] it is “<”; for `O=C(Cc1ccc(Cl)cc1)Nc1cccc(Cl)n1` [Compound 21] it is “>”.
